For experiment [1], the target named is T1, Red chlorophyll catabolite reductase (Citrus sinensis).
T1 chain: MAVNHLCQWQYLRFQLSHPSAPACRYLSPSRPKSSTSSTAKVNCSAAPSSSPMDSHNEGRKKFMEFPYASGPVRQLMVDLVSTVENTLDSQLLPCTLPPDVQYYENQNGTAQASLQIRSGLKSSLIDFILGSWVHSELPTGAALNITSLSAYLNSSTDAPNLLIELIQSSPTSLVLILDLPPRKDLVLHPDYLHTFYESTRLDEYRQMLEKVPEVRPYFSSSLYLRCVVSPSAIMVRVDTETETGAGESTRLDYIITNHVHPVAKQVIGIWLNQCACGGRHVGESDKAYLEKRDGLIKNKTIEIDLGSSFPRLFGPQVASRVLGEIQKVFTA
Briefly: yeast two-hybrid.

The target of experiment [2] is T2, PP2-B2/12 (orange1.1t04174) (Citrus sinensis).
T2 chain: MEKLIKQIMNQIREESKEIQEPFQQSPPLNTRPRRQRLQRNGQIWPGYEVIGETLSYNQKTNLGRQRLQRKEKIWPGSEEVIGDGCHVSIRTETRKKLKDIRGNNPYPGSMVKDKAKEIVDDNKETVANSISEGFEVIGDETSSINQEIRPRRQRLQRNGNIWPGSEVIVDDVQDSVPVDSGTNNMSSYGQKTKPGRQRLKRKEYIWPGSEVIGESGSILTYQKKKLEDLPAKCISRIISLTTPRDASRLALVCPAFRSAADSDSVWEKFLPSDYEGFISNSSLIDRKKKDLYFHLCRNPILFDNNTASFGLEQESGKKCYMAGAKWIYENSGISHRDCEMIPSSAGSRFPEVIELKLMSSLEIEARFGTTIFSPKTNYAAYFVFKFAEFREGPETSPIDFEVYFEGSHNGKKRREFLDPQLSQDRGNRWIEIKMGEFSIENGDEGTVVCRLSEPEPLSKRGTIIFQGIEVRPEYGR
Briefly: yeast two-hybrid.

B1:  (other)
chain: DTLSDSKQHNKINNTKNHLDLLFPIDDSHNQKPTEKKPNTSSIKIKNNIIEPQPGPSRWEGGWNGERYVREWER
Regarding B1, the binding result in experiment [1] and in experiment [2] was “binds” in each case.

The values above are taken from patent US12365912 (UNIVERSITY OF FLORIDA RESEARCH FOUNDATION, dated 2025).
